The first assay concerns mutant HIV-1 with M46I/I47V/I50V mutations (I50V #1). To be noted: fold change.
`COc1ccc(S(=O)(=O)N(CC(C)C)CC(O)C(Cc2ccc(CO)cc2)NC(=O)OC2COC3OCCC23)cc1` (stereo not shown): the “I50V (#1) fold change” value is reported as “− (≦3)”.
On the same count and under the same terms, next, `COc1ccc(S(=O)(=O)N(CCN(C)C)CC(O)C(Cc2ccc(O)cc2)NC(=O)OC2COC3OCCC23)cc1` (stereo not shown): “− (≦3)”; `Cc1cccc(C)c1OCC(=O)NC(Cc1ccc(OCP(=O)(O)O)cc1)C(O)CN(CC(C)C)S(=O)(=O)c1ccc(N)cc1` (stereo not shown): “++ (>10 to ≦30)”.
Turning to `Cc1cccc(C)c1OCC(=O)NC(Cc1ccc(OCP(=O)(OCc2ccccc2)OCc2ccccc2)cc1)C(O)CN(CC(C)C)S(=O)(=O)c1ccc(N)cc1` (stereo not shown), the “I50V (#1) fold change” value is given as “+ (>3 to ≦10)”.
For `Cc1ccc(C(=O)NC(Cc2ccc(OCP(=O)(O)O)cc2)C(O)CN(CC(C)C)S(=O)(=O)c2ccc(N)cc2)cc1O` (stereo not shown), the “I50V (#1) fold change” value is given as “++ (>10 to ≦30)”.
In the case of `Cc1ccc(C(=O)NC(Cc2ccc(OCP(=O)(OCc3ccccc3)OCc3ccccc3)cc2)C(O)CN(CC(C)C)S(=O)(=O)c2ccc(N)cc2)cc1O` (stereo not shown), the “I50V (#1) fold change” value is on record as “+++ (>30)”.
Same read-out and setting: to `CCOP(=O)(COc1ccc(S(=O)(=O)N(CC(C)C)CC(O)C(Cc2ccccc2)NC(=O)OC2COC3OCCC23)cc1)OCC` (stereo not shown) belongs “++ (>10 to ≦30)”; to `CC(C)CN(CC(O)C(Cc1ccccc1)NC(=O)OC1COC2OCCC12)S(=O)(=O)c1ccc(OCP(=O)(OCc2ccccc2)OCc2ccccc2)cc1` (stereo not shown), “+++ (>30)”; to `COc1cccc(S(=O)(=O)N(CC(C)C)CC(O)C(Cc2ccccc2)NC(=O)OC2COC3OCCC23)c1` (stereo not shown), “+++ (>30)”.
As for `CC(C)CN(CC(O)C(Cc1ccccc1)NC(=O)OC1COC2OCCC12)S(=O)(=O)c1cccc(OCP(=O)(O)O)c1` (stereo not shown), the “I50V (#1) fold change” value was “++ (>10 to ≦30)”.
For the molecule `CCOP(=O)(COc1cccc(S(=O)(=O)N(CC(C)C)CC(O)C(Cc2ccccc2)NC(=O)OC2COC3OCCC23)c1)OCC` (stereo not shown), the “I50V (#1) fold change” value was “+++ (>30)”.
For the molecule `CC(C)CN(CC(O)C(Cc1ccccc1)NC(=O)OC1COC2OCCC12)S(=O)(=O)c1cccc(OCP(=O)(OCc2ccccc2)OCc2ccccc2)c1` (stereo not shown), the “I50V (#1) fold change” value is recorded as “++ (>10 to ≦30)”.
With `COc1ccc(S(=O)(=O)N(CC(C)C)CC(O)C(Cc2ccccc2)NC(=O)OC2COC3OCCC23)cc1OCP(=O)(OCc1ccccc1)OCc1ccccc1` (stereo not shown), the “I50V (#1) fold change” value is reported as “+++ (>30)”.
Turning to `CC(C)CN(C[C@@H](O)[C@H](Cc1ccc(OCP(=O)(Oc2ccccc2)Oc2ccccc2)cc1)NC(=O)OC1CCOC1)S(=O)(=O)c1ccc(N)cc1` (stereo partly shown) [NH2, phenol], the “I50V (#1) fold change” value is “+ (>3 to ≦10)”.
As for `CC(C)CN(C[C@@H](O)[C@H](Cc1ccc([N+](=O)[O-])cc1)NC(=O)O[C@H]1CO[C@H]2OCC[C@H]21)S(=O)(=O)c1ccc(OCP(=O)(Oc2ccccc2)Oc2ccccc2)cc1` [NO2, phenol], the “I50V (#1) fold change” value is “− (≦3)”.
In the case of `COc1ccc(S(=O)(=O)N(CC(C)C)C[C@@H](O)[C@H](Cc2ccc(OCP(=O)(OCc3ccccc3)OCc3ccccc3)cc2)NC(=O)OC2CCOC2)cc1` (stereo partly shown) [OMe, OBn], the “I50V (#1) fold change” value was “++ (>10 to ≦30)”.
As to `CCOP(=O)(COc1ccc(CC(NC(=O)OC2CCOC2)C(O)CN(CC(C)C)S(=O)(=O)c2ccc(OC)cc2)cc1)OCC` (stereo not shown) [OMe, OEt], the “I50V (#1) fold change” value is “+++ (>30)”.
For `COc1ccc(S(=O)(=O)N(CC(C)C)C[C@@H](O)[C@H](Cc2ccc(OCP(=O)(O)O)cc2)NC(=O)OC2CCOC2)cc1` (stereo partly shown) [OMe, OH], the “I50V (#1) fold change” value is “+++ (>30)”.
In the case of `COc1ccc(S(=O)(=O)N(CC(C)C)C[C@@H](O)[C@H](Cc2ccc(OCP(=O)(Oc3ccccc3)Oc3ccccc3)cc2)NC(=O)OC2CCOC2)cc1` (stereo partly shown) [OMe, phenol], the “I50V (#1) fold change” value is “+++ (>30)”.

Still in this assay, the particulars now being: fold difference in EC50 mutant vs wild type, class symbols.
In the case of `CCOP(=O)(OCC)c1ccc(CN(C)CC(NC(=O)OC2COC3OCCC23)C(O)CN(CC(C)C)S(=O)(=O)c2ccc(OC)cc2)cc1` (stereo not shown), the “I50V (#1) fold change” value is “+++ (>30)”.
`CCOC(=O)C(CC)OP(=O)(COc1ccc(CC(NC(=O)OC2COC3OCCC23)C(O)CN(CC(C)C)S(=O)(=O)c2ccc(OC)cc2)cc1)Oc1ccccc1` (stereo not shown) [Compound 5a]: the “I50V (#1) fold change” value was “+ (>3 to ≦10)”.
Same read-out and setting: to `COc1ccc(S(=O)(=O)N(CC(C)C)CC(O)C(Cc2ccc(OCP(=O)(OCc3ccccc3)OCc3ccccc3)cc2)NC(=O)OC2COC3OCCC23)cc1` (stereo not shown) [drawing 1768 R1=OBn R2=OBn] belongs “− (≦3)”.
`CCOP(=O)(COc1ccc(CC(NC(=O)OC2COC3OCCC23)C(O)CN(CC(C)C)S(=O)(=O)c2ccc(OC)cc2)cc1)OCC` (stereo not shown) [drawing 1768 R1=OEt R2=OEt]: the “I50V (#1) fold change” value is “− (≦3)”.
With `COc1ccc(S(=O)(=O)N(CC(C)C)CC(O)C(Cc2ccc(OCP(=O)(OC(C)C)OC(C)C)cc2)NC(=O)OC2COC3OCCC23)cc1` (stereo not shown) [drawing 1768 R1=OiPr R2=OiPr], the “I50V (#1) fold change” value is listed as “− (≦3)”.
For `CCOP(=O)(OCC)c1ccc(CC(NC(=O)OC2COC3OCCC23)C(O)CN(CC(C)C)S(=O)(=O)c2ccc(OC)cc2)cc1` (stereo not shown) [drawing 1770 R1=OEt R2=OEt], the “I50V (#1) fold change” value is recorded as “+ (>3 to ≦10)”.

The values above are taken from US20070010489A1 (priority 2002, published 2007).
